PubChem BioAssay AID1224833 – University of Georgia, 2016

Assay: 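Host factors restraining rotavirus as candidate antiviral genes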 (primary screen)
Cells: monkey MA104 kidney cells
Reagents: siRNA pool against human genes, 50 nM
Time to read-out: 48 h knock-down before infection; read 24 h after infection
Conditions: infection with rotavirus strain RV3 two days after transfection; infectious dose for this stage not given
Detection: 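z-score of rotavirus antigen signal per well, from a fluorescent immunoassay, relative to non-targeting control wells on the same plate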
Direction: z-score vs non-targeting control: higher = more rotavirus replication than with non-targeting control
Call rule: In these data the active calls have z-score vs non-targeting control at about -1 or lower, or at about 1 or higher
Calls: active = z-score beyond 1 either way; inactive = z-score within 1 of zero
The deposit covers about 12,000 reagents; shown is an unselected part. Of all reagents, about 5,600 (46%) got an active call. 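Active calls cover z-scores past 1 in both directions, so they include lowered as well as raised rotavirus replication.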 Unmarked entries are inactive. Reagent sequences are not shown.

gene knocked down | z-score vs non-targeting control
PLIN4 (GeneID 729359) | 1.05 (active)
CTTNBP2NL (GeneID 55917) | -0.54
PYGO1 (GeneID 26108) | 0.746
ARF6 (GeneID 382) | 0.899
ZDHHC3 (GeneID 51304) | -0.694
DAB1 (GeneID 1600) | -2.6 (active)
NXPE1 (GeneID 120400) | -1.29 (active)
TAS2R38 (GeneID 5726) | -2.55 (active)
RGN (GeneID 9104) | -1.94 (active)
TMEFF1 (GeneID 8577) | 0.0439
CAV3 (GeneID 859) | 0.817
ABCB8 (GeneID 11194) | -1.19 (active)
SNX27 (GeneID 81609) | 2.17 (active)
CPNE8 (GeneID 144402) | -1.06 (active)
OTOGL (GeneID 283310) | -0.558
FOXR1 (GeneID 283150) | -0.368
FSTL3 (GeneID 10272) | 0.819
RPS9 (GeneID 6203) | 0.309
ATP4A (GeneID 495) | -1.9 (active)
ZNF567 (GeneID 163081) | 0.657
VSIG2 (GeneID 23584) | -0.09
VAV2 (GeneID 7410) | 1.17 (active)
ADH1A (GeneID 124) | -2.19 (active)
CLEC4F (GeneID 165530) | 1.09 (active)
S100A9 (GeneID 6280) | -0.784
OPTC (GeneID 26254) | 0.265
PKP1 (GeneID 5317) | -1 (active)
OTOR (GeneID 56914) | 1.25 (active)
MRNIP (GeneID 51149) | 1.24 (active)
CADPS (GeneID 8618) | -0.574
TMEM98 (GeneID 26022) | -0.934
NPR3 (GeneID 4883) | -0.472
ZMYND15 (GeneID 84225) | -0.591
KRT39 (GeneID 390792) | 1.18 (active)
GALNT8 (GeneID 26290) | 3.23 (active)
CYBRD1 (GeneID 79901) | -2.16 (active)
NPM2 (GeneID 10361) | -1.23 (active)
TMEM198 (GeneID 130612) | 1.54 (active)
ERI3 (GeneID 79033) | -0.667
AMBRA1 (GeneID 55626) | -0.623
ZNF519 (GeneID 162655) | -0.808
EHMT1 (GeneID 79813) | -0.541
CTDSPL (GeneID 10217) | 0.0652
NDUFAF4 (GeneID 29078) | -1.41 (active)
SIRPD (GeneID 128646) | 1.83 (active)
ADGRG2 (GeneID 10149) | -1.43 (active)
ACTA1 (GeneID 58) | -1.14 (active)
FERRY3 (GeneID 57102) | -0.164
OTUD7A (GeneID 161725) | 0.01
DSTN (GeneID 11034) | 0.741
SIX5 (GeneID 147912) | 0.948
CXorf65 (GeneID 158830) | -1.3 (active)
CKAP5 (GeneID 9793) | -0.215
OR52B2 (GeneID 255725) | 1.55 (active)
ITIH3 (GeneID 3699) | -0.478
TRMT2A (GeneID 27037) | -0.508
VAMP3 (GeneID 9341) | 0.88
ATP12A (GeneID 479) | -1.11 (active)
ERP27 (GeneID 121506) | 0.714
OR5AN1 (GeneID 390195) | 0.774
TMEM151A (GeneID 256472) | 0.958
LILRB5 (GeneID 10990) | -0.733
RNASE13 (GeneID 440163) | 0.188
CYTH2 (GeneID 9266) | -0.704
ZNF615 (GeneID 284370) | -1.1 (active)
EDC3 (GeneID 80153) | 0.973
FRG1 (GeneID 2483) | -0.272
CD4 (GeneID 920) | -0.496
ARHGAP9 (GeneID 64333) | -0.0229
NQO1 (GeneID 1728) | 1.97 (active)
HOXA9 (GeneID 3205) | 1.55 (active)
NLRP11 (GeneID 204801) | 1.1 (active)
HEPACAM (GeneID 220296) | 1.91 (active)
ANGPTL5 (GeneID 253935) | 1.3 (active)
MTRR (GeneID 4552) | -0.917
DNAJC9 (GeneID 23234) | 0.248
PRR5 (GeneID 55615) | 1.51 (active)
PSMB7 (GeneID 5695) | 1.01 (active)
BNIPL (GeneID 149428) | -0.209
KRT33B (GeneID 3884) | -2.36 (active)
ZNF512 (GeneID 84450) | -1.6 (active)
KLHL7 (GeneID 55975) | 0.0344
ABCA10 (GeneID 10349) | -0.978
ZAN (GeneID 7455) | 0.608
RBM44 (GeneID 375316) | 0.841
SPAG17 (GeneID 200162) | -1.89 (active)
CINP (GeneID 51550) | 0.246
SIVA1 (GeneID 10572) | 0.646
POLR2E (GeneID 5434) | -1.95 (active)
OR2A7 (GeneID 401427) | -0.338
ZNF225 (GeneID 7768) | -0.381
FCGBP (GeneID 8857) | 0.353
HCRT (GeneID 3060) | 0.693
MRPS31 (GeneID 10240) | -0.506
ZNF367 (GeneID 195828) | 2.28 (active)
COL2A1 (GeneID 1280) | 1.07 (active)
PCID2 (GeneID 55795) | -0.606
POLH (GeneID 5429) | -0.619
FABP7 (GeneID 2173) | -1.04 (active)
GNG7 (GeneID 2788) | -0.622
SPMIP10 (GeneID 389320) | 3.36 (active)
NXN (GeneID 64359) | -0.947
ZNF300 (GeneID 91975) | -1.28 (active)
ADAMTS3 (GeneID 9508) | 0.748
TMEM8B (GeneID 51754) | 0.463
CPVL (GeneID 54504) | 2 (active)
SEC23IP (GeneID 11196) | -0.292
KDM1A (GeneID 23028) | -0.513
ARRB2 (GeneID 409) | 2.71 (active)
SCMH1 (GeneID 22955) | 1.27 (active)

Ordered by “z-score vs non-targeting control” (low to high): some entries from above
gene knocked down | z-score vs non-targeting control
ATP12A (GeneID 479) | -1.11 (active)
TRMT2A (GeneID 27037) | -0.508
ITIH3 (GeneID 3699) | -0.478
VAMP3 (GeneID 9341) | 0.88
OR52B2 (GeneID 255725) | 1.55 (active)
